Test system: wild type HBV (pHBV 1.3)
Format: cell-based
Details: read-out: HBV DNA IC50; Wide type (pHBV 1.3)

GLS4
IC50: 2.1 nM

Reference: paper PMC11628845 (Acta Pharmaceutica Sinica. B, 2024)
